Results taken from ChEMBL document CHEMBL5034007, “Discovery of Methylene Thioacetal-Incorporated α-RgIA Analogues as Potent and Stable Antagonists of the Human α9α10 Nicotinic Acetylcholine Receptor for the Treatment of Neuropathic Pain” (2021).

Sequences of proteins named here, by UniProt entry; tags and fusion partners are left off. A change or cut given only in a name is not applied to a line headed by its entry.
UniProt P32241, whole entry, looked up: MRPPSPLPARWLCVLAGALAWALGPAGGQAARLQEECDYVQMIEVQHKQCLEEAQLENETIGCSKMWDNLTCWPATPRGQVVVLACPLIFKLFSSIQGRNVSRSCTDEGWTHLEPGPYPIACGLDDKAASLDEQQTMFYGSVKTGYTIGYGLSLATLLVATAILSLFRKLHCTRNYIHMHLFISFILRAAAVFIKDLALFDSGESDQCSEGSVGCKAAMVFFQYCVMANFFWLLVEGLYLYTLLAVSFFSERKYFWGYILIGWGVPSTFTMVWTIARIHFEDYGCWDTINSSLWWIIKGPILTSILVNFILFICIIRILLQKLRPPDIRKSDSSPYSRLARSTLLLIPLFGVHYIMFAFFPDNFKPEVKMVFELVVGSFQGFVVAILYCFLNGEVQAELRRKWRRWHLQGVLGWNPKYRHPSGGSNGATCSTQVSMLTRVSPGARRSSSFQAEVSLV
UniProt P29275: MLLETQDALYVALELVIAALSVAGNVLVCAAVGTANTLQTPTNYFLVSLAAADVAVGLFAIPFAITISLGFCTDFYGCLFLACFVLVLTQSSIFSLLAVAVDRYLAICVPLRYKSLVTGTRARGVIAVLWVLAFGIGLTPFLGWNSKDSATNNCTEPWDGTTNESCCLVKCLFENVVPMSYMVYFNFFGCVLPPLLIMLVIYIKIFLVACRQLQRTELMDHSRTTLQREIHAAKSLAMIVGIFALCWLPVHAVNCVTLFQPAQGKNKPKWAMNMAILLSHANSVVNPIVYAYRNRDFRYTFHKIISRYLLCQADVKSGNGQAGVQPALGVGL
UniProt P04150: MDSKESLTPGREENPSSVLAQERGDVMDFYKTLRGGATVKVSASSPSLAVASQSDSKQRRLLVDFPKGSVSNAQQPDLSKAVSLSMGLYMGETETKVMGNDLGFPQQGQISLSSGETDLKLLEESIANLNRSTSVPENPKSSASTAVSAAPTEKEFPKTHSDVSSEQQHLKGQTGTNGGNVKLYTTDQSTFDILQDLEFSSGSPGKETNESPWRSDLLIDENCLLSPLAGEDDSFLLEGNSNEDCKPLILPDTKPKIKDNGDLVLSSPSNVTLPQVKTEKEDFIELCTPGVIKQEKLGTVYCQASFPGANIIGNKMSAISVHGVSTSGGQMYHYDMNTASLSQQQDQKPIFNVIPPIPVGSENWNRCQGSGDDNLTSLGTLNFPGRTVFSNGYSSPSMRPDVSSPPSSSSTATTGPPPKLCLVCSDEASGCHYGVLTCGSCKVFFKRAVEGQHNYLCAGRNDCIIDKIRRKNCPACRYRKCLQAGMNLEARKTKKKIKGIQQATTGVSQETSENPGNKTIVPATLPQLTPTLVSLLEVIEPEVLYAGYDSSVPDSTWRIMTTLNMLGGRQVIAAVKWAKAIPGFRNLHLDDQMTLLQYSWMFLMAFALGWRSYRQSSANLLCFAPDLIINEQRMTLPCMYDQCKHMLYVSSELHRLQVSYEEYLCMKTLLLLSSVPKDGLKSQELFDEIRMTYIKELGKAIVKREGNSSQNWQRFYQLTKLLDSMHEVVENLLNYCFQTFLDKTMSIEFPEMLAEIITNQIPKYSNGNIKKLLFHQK
UniProt P35367, whole entry, looked up: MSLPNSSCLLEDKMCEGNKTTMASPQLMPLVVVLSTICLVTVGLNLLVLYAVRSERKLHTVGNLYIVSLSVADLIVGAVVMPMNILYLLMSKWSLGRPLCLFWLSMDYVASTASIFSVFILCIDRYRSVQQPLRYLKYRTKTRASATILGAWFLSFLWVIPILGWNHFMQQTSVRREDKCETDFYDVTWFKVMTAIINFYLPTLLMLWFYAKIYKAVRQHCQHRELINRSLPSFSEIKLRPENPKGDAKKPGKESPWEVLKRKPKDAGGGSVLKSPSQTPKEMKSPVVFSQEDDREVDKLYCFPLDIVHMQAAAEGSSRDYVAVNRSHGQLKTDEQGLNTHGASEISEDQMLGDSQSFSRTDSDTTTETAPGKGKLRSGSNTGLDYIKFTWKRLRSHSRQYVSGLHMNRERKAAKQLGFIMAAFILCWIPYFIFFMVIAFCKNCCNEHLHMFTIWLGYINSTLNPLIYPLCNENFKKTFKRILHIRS
UniProt P25021, whole entry, looked up: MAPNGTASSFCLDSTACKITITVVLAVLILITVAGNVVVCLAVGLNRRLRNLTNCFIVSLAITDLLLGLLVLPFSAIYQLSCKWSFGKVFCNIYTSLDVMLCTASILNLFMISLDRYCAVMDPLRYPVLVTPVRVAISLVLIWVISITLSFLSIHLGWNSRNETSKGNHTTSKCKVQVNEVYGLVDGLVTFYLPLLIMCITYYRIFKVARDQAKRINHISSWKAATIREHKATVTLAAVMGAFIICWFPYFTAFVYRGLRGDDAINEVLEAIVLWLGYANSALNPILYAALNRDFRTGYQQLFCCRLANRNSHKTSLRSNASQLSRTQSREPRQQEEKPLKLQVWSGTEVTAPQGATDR
UniProt P21452, whole entry, looked up: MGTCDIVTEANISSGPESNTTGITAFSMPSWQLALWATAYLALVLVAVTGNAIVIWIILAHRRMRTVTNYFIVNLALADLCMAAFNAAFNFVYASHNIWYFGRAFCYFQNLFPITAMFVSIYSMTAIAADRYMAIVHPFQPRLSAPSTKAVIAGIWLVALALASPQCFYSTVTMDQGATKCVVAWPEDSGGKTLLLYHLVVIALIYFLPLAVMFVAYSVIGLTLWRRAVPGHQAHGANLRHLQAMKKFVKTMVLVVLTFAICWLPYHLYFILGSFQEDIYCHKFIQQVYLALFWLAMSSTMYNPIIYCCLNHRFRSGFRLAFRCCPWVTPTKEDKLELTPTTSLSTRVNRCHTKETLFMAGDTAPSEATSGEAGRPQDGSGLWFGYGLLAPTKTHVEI
UniProt P20309, whole entry, looked up: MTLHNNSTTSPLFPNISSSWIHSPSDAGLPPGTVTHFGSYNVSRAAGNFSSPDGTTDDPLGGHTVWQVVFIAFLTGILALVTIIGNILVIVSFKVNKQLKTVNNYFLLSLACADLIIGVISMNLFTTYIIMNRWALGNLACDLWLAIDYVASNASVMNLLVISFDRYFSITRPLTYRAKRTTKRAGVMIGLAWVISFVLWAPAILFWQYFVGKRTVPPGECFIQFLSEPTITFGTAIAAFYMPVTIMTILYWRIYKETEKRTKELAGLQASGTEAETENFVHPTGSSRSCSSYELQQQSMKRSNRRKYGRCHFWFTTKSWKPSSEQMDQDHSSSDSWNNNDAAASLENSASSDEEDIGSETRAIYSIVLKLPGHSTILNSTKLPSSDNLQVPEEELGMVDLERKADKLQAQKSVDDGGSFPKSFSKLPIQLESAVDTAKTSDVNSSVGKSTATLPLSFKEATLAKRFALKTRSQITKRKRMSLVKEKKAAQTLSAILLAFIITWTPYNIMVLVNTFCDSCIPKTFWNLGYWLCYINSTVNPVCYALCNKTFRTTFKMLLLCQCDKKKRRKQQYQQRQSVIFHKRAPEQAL
UniProt P34972, whole entry, looked up: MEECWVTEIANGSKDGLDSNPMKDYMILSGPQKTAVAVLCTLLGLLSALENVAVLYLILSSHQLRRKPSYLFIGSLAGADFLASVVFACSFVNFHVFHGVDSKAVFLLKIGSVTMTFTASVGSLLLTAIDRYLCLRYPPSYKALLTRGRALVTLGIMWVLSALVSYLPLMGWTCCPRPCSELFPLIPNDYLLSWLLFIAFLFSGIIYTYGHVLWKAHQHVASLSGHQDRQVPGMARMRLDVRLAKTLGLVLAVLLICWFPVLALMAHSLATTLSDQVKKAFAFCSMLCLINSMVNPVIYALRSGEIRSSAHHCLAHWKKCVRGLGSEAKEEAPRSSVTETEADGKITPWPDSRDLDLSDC
UniProt P30411, whole entry, looked up: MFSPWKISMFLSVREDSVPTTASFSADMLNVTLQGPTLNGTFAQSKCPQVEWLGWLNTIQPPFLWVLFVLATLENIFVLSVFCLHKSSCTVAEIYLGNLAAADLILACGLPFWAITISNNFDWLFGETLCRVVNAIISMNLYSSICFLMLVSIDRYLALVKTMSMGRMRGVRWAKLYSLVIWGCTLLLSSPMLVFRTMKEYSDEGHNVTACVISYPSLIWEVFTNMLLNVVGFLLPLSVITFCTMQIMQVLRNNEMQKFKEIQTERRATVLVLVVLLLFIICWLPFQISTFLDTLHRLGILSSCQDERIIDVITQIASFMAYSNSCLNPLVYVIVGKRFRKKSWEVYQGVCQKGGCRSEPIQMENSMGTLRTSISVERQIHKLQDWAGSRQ
UniProt P03372, whole entry, looked up: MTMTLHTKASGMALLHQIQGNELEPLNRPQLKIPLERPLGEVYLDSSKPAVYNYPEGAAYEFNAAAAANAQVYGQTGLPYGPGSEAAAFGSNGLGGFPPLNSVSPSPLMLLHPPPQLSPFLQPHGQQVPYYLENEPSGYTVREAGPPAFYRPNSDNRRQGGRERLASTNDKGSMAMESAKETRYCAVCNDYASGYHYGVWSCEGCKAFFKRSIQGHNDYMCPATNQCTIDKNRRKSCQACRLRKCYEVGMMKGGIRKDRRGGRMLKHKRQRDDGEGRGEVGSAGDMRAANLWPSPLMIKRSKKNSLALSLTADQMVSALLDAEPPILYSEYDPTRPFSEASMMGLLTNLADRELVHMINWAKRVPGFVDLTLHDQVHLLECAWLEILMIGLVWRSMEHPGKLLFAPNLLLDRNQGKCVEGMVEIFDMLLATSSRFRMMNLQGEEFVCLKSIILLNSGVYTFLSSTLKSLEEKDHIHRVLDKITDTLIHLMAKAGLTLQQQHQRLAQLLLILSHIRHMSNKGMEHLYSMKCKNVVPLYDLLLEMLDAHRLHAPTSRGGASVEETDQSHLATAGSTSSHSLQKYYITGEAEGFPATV
UniProt P0DMS8, whole entry, looked up: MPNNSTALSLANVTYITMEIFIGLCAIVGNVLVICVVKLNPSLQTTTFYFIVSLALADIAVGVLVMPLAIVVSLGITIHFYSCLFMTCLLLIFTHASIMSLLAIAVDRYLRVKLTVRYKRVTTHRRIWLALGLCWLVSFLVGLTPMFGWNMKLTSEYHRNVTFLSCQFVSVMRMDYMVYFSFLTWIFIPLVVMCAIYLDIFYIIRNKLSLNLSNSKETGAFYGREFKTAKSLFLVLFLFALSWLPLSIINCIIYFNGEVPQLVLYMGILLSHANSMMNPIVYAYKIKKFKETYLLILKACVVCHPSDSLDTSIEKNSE
UniProt Q8VHN2: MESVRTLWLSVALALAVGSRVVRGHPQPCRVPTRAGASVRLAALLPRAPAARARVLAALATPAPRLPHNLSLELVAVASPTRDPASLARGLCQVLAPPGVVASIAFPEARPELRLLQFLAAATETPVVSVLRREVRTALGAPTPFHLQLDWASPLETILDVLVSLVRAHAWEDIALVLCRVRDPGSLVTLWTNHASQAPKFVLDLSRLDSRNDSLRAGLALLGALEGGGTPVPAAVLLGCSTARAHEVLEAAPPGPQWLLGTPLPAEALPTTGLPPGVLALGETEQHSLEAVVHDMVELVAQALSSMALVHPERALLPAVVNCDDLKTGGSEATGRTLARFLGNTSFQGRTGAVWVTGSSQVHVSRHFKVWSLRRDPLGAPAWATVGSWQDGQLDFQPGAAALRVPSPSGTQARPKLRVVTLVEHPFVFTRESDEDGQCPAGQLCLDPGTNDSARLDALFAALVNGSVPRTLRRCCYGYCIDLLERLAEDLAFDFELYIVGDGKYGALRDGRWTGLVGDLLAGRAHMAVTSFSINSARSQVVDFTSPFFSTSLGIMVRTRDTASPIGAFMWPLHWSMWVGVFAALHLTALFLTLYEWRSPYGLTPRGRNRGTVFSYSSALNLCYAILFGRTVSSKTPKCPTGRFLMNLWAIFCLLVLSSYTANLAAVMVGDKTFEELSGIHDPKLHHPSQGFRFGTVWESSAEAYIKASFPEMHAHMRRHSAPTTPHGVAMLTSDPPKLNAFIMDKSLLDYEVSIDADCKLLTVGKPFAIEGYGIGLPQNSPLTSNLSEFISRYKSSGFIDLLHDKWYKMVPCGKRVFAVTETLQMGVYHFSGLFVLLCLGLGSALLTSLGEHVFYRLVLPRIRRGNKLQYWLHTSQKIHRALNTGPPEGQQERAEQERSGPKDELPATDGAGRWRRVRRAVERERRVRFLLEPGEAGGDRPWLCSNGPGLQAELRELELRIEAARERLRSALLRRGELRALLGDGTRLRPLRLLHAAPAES
UniProt P21554, whole entry, looked up: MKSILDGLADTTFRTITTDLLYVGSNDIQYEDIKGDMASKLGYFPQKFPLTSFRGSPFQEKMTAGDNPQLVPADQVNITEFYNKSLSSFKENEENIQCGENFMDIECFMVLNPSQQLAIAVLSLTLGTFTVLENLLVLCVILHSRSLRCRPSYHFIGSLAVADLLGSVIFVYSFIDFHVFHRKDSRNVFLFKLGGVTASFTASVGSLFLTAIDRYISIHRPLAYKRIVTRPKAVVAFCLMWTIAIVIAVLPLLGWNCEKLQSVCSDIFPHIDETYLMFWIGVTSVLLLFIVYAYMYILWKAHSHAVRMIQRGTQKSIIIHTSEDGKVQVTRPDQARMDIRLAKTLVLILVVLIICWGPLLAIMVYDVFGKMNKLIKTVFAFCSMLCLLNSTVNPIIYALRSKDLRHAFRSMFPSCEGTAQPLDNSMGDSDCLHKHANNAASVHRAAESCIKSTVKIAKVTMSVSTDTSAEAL

How the values were obtained:
[1] = target: Endothelin-1 receptor (Homo sapiens) (UniProt P25101); experiment: Displacement of [125I]endothelin-1 from human recombinant endothelin ETA receptor at 10 uM after 120 mins by scintillation counting analysis relative to control
[2] = organism: Homo sapiens; experiment: Displacement of [3H]-MDL 105519 from glycine receptor (unknown origin) at 10 uM relative to control
[3] = target: Vasoactive intestinal polypeptide receptor 1 (Homo sapiens) (UniProt P32241); experiment: Displacement of [125I]VIP from human recombinant VPAC1 receptor at 10 uM after 60 mins by scintillation counting analysis relative to control
[4] = target: Adenosine receptor A2b (Homo sapiens) (UniProt P29275); experiment: Displacement of [3H]- CPX from adenosine A2B receptor (unknown origin) at 10 uM by scintillation counting analysis relative to control
[5] = target: Glucocorticoid receptor (Homo sapiens) (UniProt P04150); experiment: Displacement of [3H]dexamethasone from human glucocorticoid receptor at 10 uM after 360 mins by scintillation counting method relative to control
[6] = target: Adenosine receptor A2a (Homo sapiens) (UniProt P29274); experiment: Displacement of [3H]-CGS 21680 from human recombinant adenosine A2A receptor at 10 uM after 120 mins by scintillation counting analysis relative to control
[7] = organism: Homo sapiens; experiment: Displacement of [3H]diltiazem from L-type calcium channel diltiazem binding site (unknown origin) at 10 uM by radioligand binding assay relative to control
[8] = target: Histamine H1 receptor (Homo sapiens) (UniProt P35367); experiment: Displacement of [3H]pyrilamine from human recombinant histamine H1 receptor at 10 uM after 60 mins by scintillation counting analysis relative to control
[9] = target: Thyrotropin-releasing hormone receptor (Homo sapiens) (UniProt P34981); experiment: Displacement of [3H]Me-TRH from human recombinant TRH receptor at 10 uM after 120 mins by scintillation counting analysis relative to control
[10] = organism: Rattus norvegicus; experiment: Displacement of [3H]nitrendipine from rat L-type calcium channel dihydropyridine binding site at 10 uM by radioligand binding assay relative to control
[11] = target: Histamine H2 receptor (Homo sapiens) (UniProt P25021); experiment: Displacement of [125I]APT from recombinant human histamine H2 receptor at 10 uM after 120 mins by scintillation counting analysis relative to control
[12] = target: Substance-K receptor (Homo sapiens) (UniProt P21452); experiment: Displacement of [125I]NKA from human recombinant NK2 receptor at 10 uM after 60 mins by scintillation counting analysis relative to control
[13] = target: Muscarinic acetylcholine receptor M3 (Homo sapiens) (UniProt P20309); experiment: Displacement of [3H]4-DAMP from human recombinant M3 receptor at 10 uM after 60 mins by scintillation counting analysis relative to control
[14] = target: Cannabinoid receptor 2 (Homo sapiens) (UniProt P34972); experiment: Displacement of [3H]WIN 55212-2 from human recombinant CB2 receptor at 10 uM after 120 mins by scintillation counting analysis relative to control
[15] = target: Type-1 angiotensin II receptor (Homo sapiens) (UniProt P30556); experiment: Displacement of [125I]-AT-II from human recombinant AT1 receptor at 10 uM after 120 mins by scintillation counting analysis relative to control
[16] = organism: Rattus norvegicus; experiment: Displacement of [3H]flunitrazepam from rat brain central BZD at 10 uM after 60 mins by radioligand binding assay relative to control
[17] = target: Corticotropin-releasing factor receptor 1 (Homo sapiens) (UniProt P34998); experiment: Displacement of [125I]sauvagine from recombinant human CRF1 receptor at 10 uM after 120 mins by scintillation counting analysis relative to control
[18] = target: B2 bradykinin receptor (Homo sapiens) (UniProt P30411); experiment: Displacement of [3H]bradykinin from human recombinant B2 receptor at 10 uM after 60 mins by scintillation counting analysis relative to control
[19] = target: Vasopressin V1b receptor (Homo sapiens) (UniProt P47901); experiment: Displacement of [3H]AVP from V1b receptor (unknown origin) at 10 uM by scintillation counting analysis relative to control
[20] = target: Muscarinic acetylcholine receptor M1 (Homo sapiens) (UniProt P11229); experiment: Displacement of [125I]pirenzepine from human recombinant M1 receptor at 10 uM after 60 mins by scintillation counting analysis relative to control
[21] = organism: Homo sapiens; experiment: Displacement of [3H]nociceptin from human recombinant NOP receptor at 10 uM after 60 mins by scintillation counting analysis relative to control
[22] = target: Type-2 angiotensin II receptor (Homo sapiens) (UniProt P50052); experiment: Displacement of [125I]CGP 42112A from recombinant human AT2 at 10 uM after 240 mins by scintillation counting method relative to control
[23] = target: Estrogen receptor (Homo sapiens) (UniProt P03372); experiment: Displacement of [3H]estradiol from human ER at 10 uM after 1200 mins by scintillation counting analysis relative to control
[24] = target: Adenosine receptor A3 (Homo sapiens) (UniProt P0DMS8); experiment: Displacement of [125I]AB-MECA from human recombinant adenosine A3 receptor at 10 uM after 120 mins by scintillation counting analysis relative to control
[25] = target: Glutamate NMDA receptor (Rattus norvegicus) (UniProt P35439+Q00959+Q00960+Q00961+Q62645+Q8VHN2+Q9R1M7); experiment: Displacement of [3H]CGP 39653 from rat brain NMDA receptor at 10 uM after 60 mins by scintillation counting method relative to control
[26] = target: Cannabinoid receptor 1 (Homo sapiens) (UniProt P21554); experiment: Displacement of [3H]CP 55940 from recombinant human CB1 receptor at 10 uM after 30 mins by scintillation counting method relative to control
[27] = target: Delta-type opioid receptor (Homo sapiens) (UniProt P41143); experiment: Displacement of [3H]DADLE from human recombinant Delta opioid receptor at 10 uM after 60 mins by scintillation counting analysis relative to control; settings: filed as antagonist

C[C@H](O)[C@H]1NC(=O)[C@@H]2NC(=O)[C@@H](NC(=O)CN)CSSC[C@H](NC(=O)[C@H](CCCNC(=N)N)NC(=O)[C@@H]3CCCN3C(=O)[C@H](CC(O)O)NC1=O)C(=O)N[C@@H](CCCNC(=N)N)C(=O)N[C@@H](Cc1ccc(O)c(I)c1)C(=O)N[C@@H](CCC(N)=O)C(=O)N[C@H](C(=O)N[C@H](CC(=O)N[C@@H](CCCNC(=N)N)C(=O)O)Cc1ccc(O)cc1)CSCS2
Activity [1]: -29.7% | Activity [2]: -13.4% | Activity [3]: -5.7% | Activity [4]: -8.6% | Activity [5]: -2.9% | Activity [6]: 6.3% | Activity [7]: -20.3% | Activity [8]: 5.6% | Activity [9]: -4% | Activity [10]: -3.1% | Activity [11]: -4.4% | Activity [12]: 6% | Activity [13]: -2.8% | Activity [14]: -3.8% | Activity [15]: -5.3% | Activity [16]: 11.6% | Activity [17]: 14.2% | Activity [18]: 0.8% | Activity [19]: -0.6% | Activity [20]: -16.8% | Activity [21]: -2.6% | Activity [22]: 19.3% | Activity [23]: -8.5% | Activity [24]: -11.7% | Activity [25]: 2% | Activity [26]: -0.4% | Activity [27]: 41.6%
